# Tested on: pp28-luciferase HCMV Towne strain
# Assay type: cell-based, Human Cytomegalovirus (HCMV)
# Conditions: pp28-luc HCMV in HFFs; mean ± SD
# Description: The pp28-luciferase HCMV Towne strain was constructed as previously described (14). This virus expresses luciferase under the control of the late CMV gene promoter, pp28. Luciferase expression is strongly activated 48-72 hours post infection (hpi). […] A GCV-resistant HCMV strain was obtained from a patient with CMV disease. […] Human herpes virus strains were: luciferase HSV1-KOS/Dlux/oriS (15) and clinical isolates of HSV1 and HSV2. All clinical isolates were provided by the clinical virology laboratory with no identifiers that can link to a specific subject. The Johns Hopkins Office of Human Subject Research Institutional Review Board determined that this research qualified for an exemption.
# Human Foreskin Fibroblasts (HFFs) passage 12-16 (ATCC, CRL-2088™) were grown in Dulbecco's Modified Eagle Medium (DMEM) containing 10% fetal bovine serum (FBS) (Gibco, Carlsbad, Calif.) in a 5% CO2 incubator at 37° C. and used for infection with HCMV or HSV at multiplicity of infection of 1 PFU/cell (MOI=1) unless otherwise specified. Following 90 minute adsorption (60 min for HSV), media was removed and cells were washed with PBS. DMEM with 4% FBS containing compounds was added to each well. For HCMV, infected, treated HFFs were collected at 72 hpi and lysates were assayed for luciferase activity using a luciferase assay kit (Promega, Madison, Wis.) on GloMax®-Multi+ Detection System (Promega) according to manufacturer's instructions.
row,SMILES,slope of the dose response curve
1,"Nc1nc(O)c2ncn(COC(CO)CO)c2n1 [GCV, ganciclovir]",1.3 ± 0.06
2,CC[C@@]1([C@@H]2O[C@@H]([C@H]3O[C@@](O)(CO)[C@H](C)C[C@@H]3C)C[C@@H]2C)CC[C@H]([C@]2(C)CC[C@]3(C[C@H](O)[C@@H](C)[C@@H]([C@@H](C)[C@@H](OC)[C@H](C)C(=O)O)O3)O2)O1 [Monensin],1.2 ± 0.11
3,"CO[C@@H]1C[C@@H](C[C@H]2CC[C@H](C)[C@H]([C@@H](C)C(=O)O)O2)O[C@]2(O[C@](C)([C@H]3CC[C@@](C)([C@@H]4O[C@@H]([C@H]5O[C@@](O)(CO)[C@H](C)C[C@@H]5C)C[C@@H]4C)O3)C[C@H]2C)[C@@H]1C [Nigericin, nigericin]",1.4 ± 0.16
4,"CC[C@@H](C(=O)[C@@H](C)[C@@H](O)[C@H](C)[C@@H]1O[C@@H]([C@@H](CC)C(=O)O)CC[C@@H]1C)[C@H]1O[C@]2(C=C[C@@H](O)[C@]3(CC[C@@](C)([C@H]4CC[C@](O)(CC)[C@H](C)O4)O3)O2)[C@H](C)C[C@@H]1C [Salinomycin, salinomycin]",1.4 ± 0.16
